In patent US20080076824A1, “Compounds That Inhibit Replication Of Human Immunodeficiency Virus” (priority 2004, published 2008):

Tested on: HIV-1 (IIIB)
Conditions: read-out: EC50 against HIV-1(IIIB); CEM cell cultures, Table 2

## C[C@H](N)C(=O)N1CCC[C@H]1C(=O)NCC(=O)N[C@@H](Cc1c[nH]c2ccccc12)C(N)=O [Ala-Pro-Gly-Trp-amide, reference compound]
  EC50: > 500 µM
